Taken from: PubChem BioAssay AID624099 (ICCB-Longwood, 2012)

- Purpose: 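Host factors E2 relies on to silence an HPV18 LCR reporter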 (primary screen)
- System: human C33A cervical carcinoma cells (HPV-negative) stably expressing BPV1 E2 and an HPV18 LCR luciferase reporter
- Reagent: siRNA pool against human genes, 40 nM
- Duration: 72 h
- Detection: 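HPV18 LCR reporter light per well, converted to plate-wise z-scores that exclude control wells, and averaged over triplicate plates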
- Reading the numbers: mean z-score and z-score: higher = stronger reporter signal, weaker E2 silencing
- Rule for the call: 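Hit if mean z-score reaches 2 and two or more of three replicate z-scores also reach 2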
The deposit covers about 21,000 reagents; below is an unselected part. In the full data, 497 (2.4%) were called active. 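Higher z means weaker E2 silencing; only reporter increases were scored, and knock-downs that hurt cell survival may mask genuine repressor factors.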 The numbers tell different reagents against one gene apart.

gene knocked down | pool no. | mean z-score | z-score, replicate A | z-score, replicate B | z-score, replicate C | activity call
RER1 (GeneID 11079) | 1 | 0.77 | 0.45 | 1.09 | 0.78 | inactive
TIMM10B (GeneID 26515) | 1 | -0.19 | -0.26 | -0.29 | -0.02 | inactive
MCM10 (GeneID 55388) | 1 | 0.75 | 0.65 | 0.84 | 0.76 | inactive
TNP2 (GeneID 7142) | 1 | -0.73 | -0.64 | -0.5 | -1.06 | inactive
PDE4DIP (GeneID 9659) | 1 | 0.22 | -0.07 | 0.37 | 0.35 | inactive
CNIH2 (GeneID 254263) | 1 | -1.02 | -0.49 | -1.5 | -1.07 | inactive
LOC340089 (GeneID 340089) | 1 | 4.17 | 3.68 | 4.06 | 4.76 | active
OR2C3 (GeneID 81472) | 1 | -0.57 | -0.63 | -0.59 | -0.48 | inactive
LINC01697 (GeneID 284825) | 1 | 0.18 | 0.28 | -0.04 | 0.3 | inactive
B3GALNT1 (GeneID 8706) | 1 | -0.56 | -0.41 | -0.5 | -0.77 | inactive
DERL1 (GeneID 79139) | 1 | -0.88 | -0.66 | -1.12 | -0.85 | inactive
WNT8B (GeneID 7479) | 1 | 0.02 | -0.2 | 0.41 | -0.13 | inactive
SLC12A2 (GeneID 6558) | 1 | -0.11 | 0.15 | -0.4 | -0.09 | inactive
NALCN (GeneID 259232) | 1 | -0.69 | -0.51 | -1.12 | -0.46 | inactive
KRT10-AS1 (GeneID 147184) | 1 | 0.05 | -0.77 | 0.21 | 0.7 | inactive
ZFAND2B (GeneID 130617) | 1 | 0.26 | 0.08 | 0.19 | 0.5 | inactive
DLD (GeneID 1738) | 1 | 0 | 0.23 | 0.18 | -0.4 | inactive
TIMM8A (GeneID 1678) | 1 | -0.02 | -0.1 | -0.23 | 0.28 | inactive
COL9A2 (GeneID 1298) | 1 | -0.05 | 0.01 | -0.04 | -0.13 | inactive
LOC285563 (retired record) (GeneID 285563) | 1 | 0.16 | 0.18 | -0.15 | 0.45 | inactive
LOC285563 (retired record) (GeneID 285563) | 2 | 0.44 | 0.31 | 0.63 | 0.39 | inactive
LOC285563 (retired record) (GeneID 285563) | 3 | 0.21 | 0.06 | 0.21 | 0.37 | inactive
LOC285563 (retired record) (GeneID 285563) | 4 | -0.07 | 0.15 | -0.77 | 0.39 | inactive
LOC285563 (retired record) (GeneID 285563) | 5 | 0.36 | 0.2 | 0.28 | 0.58 | inactive
SLC39A10 (GeneID 57181) | 1 | -1.07 | -0.9 | -1.3 | -1.01 | inactive
KCNS2 (GeneID 3788) | 1 | -0.08 | -0.2 | 0.23 | -0.26 | inactive
RFPL2 (GeneID 10739) | 1 | -0.33 | -0.25 | -0.4 | -0.34 | inactive
SUDS3 (GeneID 64426) | 1 | -1.07 | -1.01 | -0.95 | -1.24 | inactive
EWSR1 (GeneID 2130) | 1 | -1.55 | -1.16 | -1.67 | -1.83 | inactive
MRPL50 (GeneID 54534) | 1 | 0.38 | 0.26 | 0.38 | 0.49 | inactive
KMT2E (GeneID 55904) | 1 | -1.12 | -1.18 | -1.14 | -1.05 | inactive
THOC1 (GeneID 9984) | 1 | -0.95 | -0.84 | -0.99 | -1.01 | inactive
LOC387940 (retired record) (GeneID 387940) | 1 | -0.35 | -0.56 | -0.14 | -0.35 | inactive
ST13P6 (GeneID 157530) | 1 | -0.45 | -0.24 | -0.73 | -0.38 | inactive
ALX4 (GeneID 60529) | 1 | -0.4 | -0.21 | -0.46 | -0.53 | inactive
SEC63 (GeneID 11231) | 1 | 1.33 | 1.81 | 1.21 | 0.96 | inactive
GINS2 (GeneID 51659) | 1 | -0.66 | -0.6 | -0.67 | -0.72 | inactive
IFRD1 (GeneID 3475) | 1 | 0.65 | 0.6 | 0.82 | 0.53 | inactive

Hits, among the entries above:
gene knocked down | pool no. | mean z-score | z-score, replicate A | z-score, replicate B | z-score, replicate C | activity call
LOC340089 (GeneID 340089) | 1 | 4.17 | 3.68 | 4.06 | 4.76 | active

Further reagents follow.
gene knocked down | pool no. | mean z-score | z-score, replicate A | z-score, replicate B | z-score, replicate C | activity call
RASL11B (GeneID 65997) | 1 | -0.35 | -0.47 | -0.03 | -0.54 | inactive
NOTCH3 (GeneID 4854) | 1 | -0.5 | -0.63 | -0.46 | -0.42 | inactive
PRDX3 (GeneID 10935) | 1 | 0.79 | 1.02 | 0.72 | 0.64 | inactive
SPRTN (GeneID 83932) | 1 | 0.5 | 0.7 | 0.66 | 0.15 | inactive
PCDHGA10 (GeneID 56106) | 1 | -0.72 | -1.12 | -0.64 | -0.39 | inactive
EPHA3 (GeneID 2042) | 1 | -0.04 | 0.1 | 0.09 | -0.3 | inactive
VPS51 (GeneID 738) | 1 | -0.19 | -0.29 | -0.28 | 0.01 | inactive
POP7 (GeneID 10248) | 1 | -0.19 | 0.57 | -0.52 | -0.61 | inactive
SMYD2 (GeneID 56950) | 1 | 0.42 | 0.1 | 0.51 | 0.65 | inactive
ATP8B2 (GeneID 57198) | 1 | 0.53 | 0.43 | 0.64 | 0.53 | inactive
PAPPA2 (GeneID 60676) | 1 | -0.12 | 0.03 | -0.01 | -0.38 | inactive
GARNL3 (GeneID 84253) | 1 | 0.36 | 0.04 | 0.59 | 0.46 | inactive
PHEX (GeneID 5251) | 1 | -0.2 | -0.35 | -0.24 | 0 | inactive
PPP1R2B (GeneID 153743) | 1 | -0.07 | -0.06 | -0.48 | 0.33 | inactive
RPF1 (GeneID 80135) | 1 | 0.03 | 0.18 | -0.16 | 0.07 | inactive
USP11 (GeneID 8237) | 1 | -0.96 | -0.78 | -1.04 | -1.07 | inactive
SMCR8 (GeneID 140775) | 1 | 1.41 | 1.87 | 0.94 | 1.42 | inactive
NCBP3 (GeneID 55421) | 1 | 0.31 | 0.55 | 0.35 | 0.03 | inactive
NKG7 (GeneID 4818) | 1 | 0.18 | -0.07 | 0.21 | 0.39 | inactive
